# Measurements published in BindingDB's records for doi:10.1021/jm049276y (Abbott Laboratories, 2005).
# Sequences of proteins named here, by UniProt entry; tags and fusion partners are left off.
# UniProt P06820, whole entry: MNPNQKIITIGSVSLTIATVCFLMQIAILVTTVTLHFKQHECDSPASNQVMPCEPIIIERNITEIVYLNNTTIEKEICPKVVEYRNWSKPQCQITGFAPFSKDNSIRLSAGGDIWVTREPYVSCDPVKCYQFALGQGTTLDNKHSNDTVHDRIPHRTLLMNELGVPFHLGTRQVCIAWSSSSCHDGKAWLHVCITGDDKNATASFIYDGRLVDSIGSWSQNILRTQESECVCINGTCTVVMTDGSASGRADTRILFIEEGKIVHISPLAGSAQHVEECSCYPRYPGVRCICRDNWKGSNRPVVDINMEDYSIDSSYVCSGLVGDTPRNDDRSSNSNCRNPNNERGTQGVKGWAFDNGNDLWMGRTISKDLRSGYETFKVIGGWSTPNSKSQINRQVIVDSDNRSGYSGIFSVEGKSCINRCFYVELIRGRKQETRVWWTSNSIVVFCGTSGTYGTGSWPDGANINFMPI
# Target: Neuraminidase (Influenza A virus (strain A/Tokyo/3/1967 H2N2), UniProt P06820)
# Conditions: pH 7.5; 22 °C
smiles,measurement,value
"CC(=O)N[C@@H](CC(C)C)[C@@H]1N[C@@H](C(=O)O)C[C@H]1c1cc[nH]n1 (racemic) [(2R,4R,5R)-5-[(1S)-1-acetamido-3-methylbutyl]-4-(1H-pyrazol-3-yl)pyrrolidine-2-carboxylic acid]",Ki,45 nM
